Reference: PubChem BioAssay AID504761 (Drosophila RNAi Screening Center, 2011)
The deposit covers about 22,000 reagents; below is a random part of those that have a named target and a result. In the full data, 116 (0.52%) were called active. 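Calls depend on retest data that are not deposited; infection was ranked per plate without normalising between plates; the unit of the infection score is not given.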 The raw values are shown without normalisation. A plus sign joins genes that one reagent is predicted to hit. Not given: the amount of reagent, the time to read-out.

Test: 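Fly genes whose silencing reduces dengue virus type 2 infection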 (primary screen)
System: D.Mel-2 cells from Drosophila
Reagent: long dsRNA against Drosophila genes
Challenge: infection with dengue virus type 2; dose and infection time not stated
Read-out: 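Per well on two replicate plates, imaging gave the percent of cells positive for viral envelope protein, ranked by infection, and a nuclear count of cells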
Scale: infection score: higher = more virus-infected cells; cell count: higher = more cells in the well
Active means: 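Very low infection ranking in both replicate wells (chance probability at most 0.065), then a retest showing infection dropped 1.5-fold or more at p below 0.05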
Calls: active = confirmed: knock-down lowers infection; inactive = not picked or not confirmed

gene | amplicon | infection score, replicate 1 | infection score, replicate 2 | cell count, replicate 1 | cell count, replicate 2 | outcome
Mpp6 | DRSC03169 | 23.4 | – | 4203 | 472 | inactive
Mpp6 | DRSC29734 | 15.7 | 7.01 | 6383 | 5995 | inactive
CycB3 | DRSC16618 | 4.21 | – | 2375 | 392 | inactive
CG31872 | DRSC02568 | 2.99 | 1.9 | 6730 | 6574 | inactive
CG31872 | DRSC02572 | 9.22 | 5.74 | 6419 | 6570 | inactive
cbc | DRSC06957 | 6.77 | 7.5 | 5824 | 3562 | inactive
Agpat1 | DRSC19879 | 13.2 | 14.1 | 5200 | 5197 | inactive
Agpat1 | DRSC19880 | 7.22 | 19 | 5717 | 6304 | inactive
Ttc30 | DRSC02818 | 2.64 | 12.2 | 6319 | 7066 | inactive
Ttc30 | DRSC25846 | 0.9 | 5.19 | 5877 | 6161 | inactive
CG14194 | DRSC19549 | 8.89 | 3.27 | 5479 | 6240 | inactive
Eaat2 | DRSC00032 | 8.56 | 1.66 | 6517 | 6157 | inactive
Eaat2 | DRSC00749 | 4.61 | 5.45 | 6357 | 5858 | inactive
Eaat2 | DRSC26070 | 10.4 | 3.03 | 5720 | 6115 | inactive
CG31704 | DRSC22118 | 5.09 | 25.7 | 6328 | 5952 | inactive
CG44774 | DRSC18342 | 8.77 | 9.62 | 5681 | 4576 | inactive
CG44774 | DRSC27595 | 4 | 6.24 | 6096 | 6461 | inactive
Amyrel | DRSC05920 | 15.2 | 11.2 | 6197 | 4032 | inactive
Aldh | DRSC02717 | 1.62 | 6.38 | 5916 | 2664 | inactive
tfc | DRSC07953 | 0.91 | 1.61 | 6581 | 5963 | inactive
tfc | DRSC07954 | 0.19 | 0.35 | 5863 | 5652 | inactive
tfc | DRSC08626 | 3.55 | 3.93 | 6443 | 6559 | inactive
tfc | DRSC21704 | 2.71 | 2.58 | 6426 | 6796 | inactive
tfc | DRSC23750 | 6.7 | 6.74 | 6198 | 6153 | inactive
Deaf1 | DRSC11143 | 6.96 | 6.27 | 6628 | 6575 | inactive
Deaf1 | DRSC22786 | 1.29 | 15.2 | 7113 | 6687 | inactive
Deaf1 | DRSC25984 | 2.11 | 10.1 | 6628 | 6279 | inactive
edl | DRSC06516 | 8.32 | 4.92 | 6167 | 6912 | inactive
edl | DRSC28035 | 3.12 | 10.3 | 5638 | 5593 | inactive
Rpn1 | DRSC11274 | 2.15 | 0.71 | 839 | 1119 | inactive

Look-ups from the entries so far.
Value of Eaat2 [DRSC00032] under “infection score, replicate 2”: 1.66
For “infection score, replicate 2”, CG44774 [DRSC18342] is entered as 9.62
For “cell count, replicate 1”, Rpn1 [DRSC11274] has 839

The results go on:
gene | amplicon | infection score, replicate 1 | infection score, replicate 2 | cell count, replicate 1 | cell count, replicate 2 | outcome
CG2839 | DRSC00544 | 3.21 | 1.72 | 6580 | 6355 | inactive
CG2839 | DRSC28090 | 32 | 16.6 | 5219 | 5497 | inactive
CG34050 (retired record) | DRSC09067 | 14.2 | 11.4 | 4029 | 4688 | inactive
CG34050 (retired record) | DRSC26231 | 14 | 1.48 | 5684 | 6354 | inactive
CG31278 | DRSC16051 | 4.22 | 6.99 | 6044 | 6035 | inactive
CG18536 | DRSC06763 | 10.2 | 15 | 5672 | 5964 | inactive
RnrS | DRSC07533 | 0.78 | 51.4 | 514 | 969 | inactive
RnrS | DRSC23541 | 7.44 | 9.1 | 1197 | 1319 | inactive
Or33b | DRSC03387 | 8.53 | 19 | 5966 | 5332 | inactive
His3:CG33818 + His3:CG33857 + His3:CG33806 + 21 more | DRSC27099 | 19.5 | 16.1 | 5980 | 5529 | inactive
CG10035 | DRSC14177 | 2.56 | 11.4 | 6635 | 5860 | inactive
CG10035 | DRSC28663 | 2.89 | – | 553 | 369 | inactive
chic | DRSC03507 | 9.43 | 11.4 | 4686 | 5717 | inactive
CG13204 | DRSC06328 | 2.91 | 3.98 | 6504 | 6306 | inactive
CG13204 | DRSC27988 | 4.06 | 11.5 | 6696 | 5785 | inactive
Kua | DRSC02100 | 6.8 | 12.2 | 6777 | 5115 | inactive
CG3823 | DRSC18325 | 2.24 | 1.74 | 6248 | 6281 | inactive
CG3823 | DRSC26025 | 10.7 | 9.49 | 4931 | 6093 | inactive
CG3704 | DRSC18174 | 14.3 | 3.37 | 4412 | 5787 | inactive
CG3704 | DRSC18645 | 6.54 | 11.4 | 1605 | 4675 | inactive
CG3704 | DRSC28218 | – | 10.4 | 354 | 2566 | inactive
Ten-m | DRSC11664 | 3.68 | 18.1 | 6188 | 5459 | inactive
Ten-m | DRSC11882 | 4.46 | 5.08 | 6930 | 6416 | inactive
Rrp40 | DRSC00074 | 13.4 | 3.67 | 5877 | 5857 | inactive
Hmx | DRSC24958 | 3.38 | 2.35 | 7032 | 7113 | inactive
Hmx | DRSC25028 | 3.75 | 4.37 | 6476 | 6345 | inactive
Hex-A | DRSC18259 | 5.11 | 5.52 | 6010 | 6231 | inactive
Hex-A | DRSC25354 | 5.21 | 3.53 | 6239 | 6549 | inactive
